# Experimental data: PubChem BioAssay AID602233 (National Center for Advancing Translational Sciences (NCATS), 2012)
# Only a part is listed here, and it is no random draw. The source made the active and inactive calls. Calls come from the whole dose curve; as a rule, active = well fitted inhibition curve with a large enough effect; inconclusive = small, poorly fitted or top-dose-only effect; inactive = no such curve, though single readings can be large or run the other way.
# Molecular target: Phosphoglycerate kinase, glycosomal (Trypanosoma brucei brucei) (UniProt P07378)
# Assay: qHTS Assay to Find Inhibitors of Phosphoglycerate Kinase; note: nearly all actives have a fitted effect of over 60% in size
# Conditions: PGK/GAPDH coupled, Kinase-Glo luminescence, 60 min; activity change, negative = inhibition: at 57.5 µM (top of the series) unless noted
# Outline: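 Luminescent ATP detection (Kinase-Glo Plus) follows a 60-minute room-temperature incubation, with wells lacking PGK as controls. Buffer: 100 mM TEA (pH 7.6), 5 mM MgCl2, 0.01% Tween-20. Coupling enzyme GAPDH (100 nM final) supplies unstable 1,3-BPG in-well.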
# % is set by controls: 0 for no effect and ±100 for the full control effect.
row,Structure (SMILES),"activity change, negative = inhibition"
1,O=P(Nc1nc2ccc(Cl)cc2s1)(c1ccccc1)c1ccccc1,inactive
2,CN(C)P(=O)(N(C)C)n1c(Nc2ccccc2)nnc1-c1ccccc1,inactive
3,CC(=O)Nc1ccc([As](=O)(O)O)cc1,inactive: -0.181%
4,CCCC1OP(N)(=O)OCC1CC (centres undefined),inactive: -6.89%
5,Nc1cccc2ccc([As](=O)(O)O)cc12,inactive: -0.965%
6,CCN(N=Nc1nonc1N)c1nonc1N,inactive: -3.49%
7,CN1CCCC(OC(=O)C(c2ccccc2)c2ccccc2)C1 (centres undefined),inactive: -2.83%
8,Clc1ccc(Cl)c(NC2=NCC(CBr)S2)c1 (centres undefined),inactive: 5.89%
9,COc1ccccc1OP(=O)(Nc1ccc(C)cn1)Oc1ccccc1OC,inactive: -2.24%
10,Cc1ccc(OP(=O)(Nc2nccs2)Oc2ccc(C)cc2)cc1,inactive: -6.1%
11,Cc1ccc(N/C(=N/P(=O)(N2CCOCC2)N2CCOCC2)N2CCOCC2)cc1,inactive: -2.37%
12,NC(=O)c1cc([N+](=O)[O-])cc([N+](=O)[O-])c1N,inactive: -12.1%
13,Oc1ccccc1CNc1ccccn1,inactive: 2.75% [at 11.5 µM]
14,O=C(NC(Sc1ccncn1)C(Cl)(Cl)Cl)c1ccccc1 (centres undefined),inactive: -5.86%
15,Nc1cc(N)c2nonc2c1[N+](=O)[O-],inactive: -17%
16,CC(C)CC(=O)NC(Sc1ccc(Cl)cc1)C(Cl)(Cl)Cl (centres undefined),inactive: -8.74%
17,O=P1(N(CCCl)CCCl)OCCCN1CCCl (centres undefined),inactive: -5.12%
18,O=P1(N(CCCl)CCCl)Nc2ccccc2N1,inactive: 7.95%
19,COc1ccc2nc(NP(=O)(c3ccccc3)c3ccccc3)sc2c1,inactive
20,COc1cc(I)ccc1[As](=O)(O)O,inactive: 10.5%
21,O=C(OC1CN2CCC1CC2)C12CC3CC(CC(C3)C1)C2 (centres undefined),inactive: -11.2%
22,Cc1cc(=O)[nH]c(N[N+](=O)[O-])n1,inactive: 7.39%
23,O=[N+]([O-])c1cc(Oc2ccc([N+](=O)[O-])cc2C(F)(F)F)cc([N+](=O)[O-])c1,inactive: -8.2%
24,COc1ccc(N/C(=N/P(=O)(N2CCOCC2)N2CCOCC2)N2CCOCC2)cc1,inactive: 0.731%
25,Cc1ccc2nc3c(c(C)c2c1)CC(C(Cl)Cl)S3 (centres undefined),inactive

row,Structure (SMILES),"activity change, negative = inhibition"
1,O=[As](O)(c1ccc(O)cc1)c1ccccc1O,inactive: -8.68%
2,C[As](=O)(O)c1cccc(C(=O)O)c1,inactive
3,O=[N+]([O-])c1ccc(-c2cc([N+](=O)[O-])c(O)c([N+](=O)[O-])c2)cc1,inactive: -12.4%
4,COc1cc(C(=O)NCC2(N3CCOCC3)CCCCC2)ccc1OCC(C)C,inactive: 11.3%
5,CC(C)NC(=O)NP(=O)(Oc1ccccc1)Oc1ccccc1,inactive: 1.49%
6,CCN(CC)C(=S)SC(NC=O)C(Cl)(Cl)Cl (centres undefined),inactive: 3.59%
7,O=C(OC1CN2CCC1CC2)c1cccc2[nH]cnc12 (centres undefined),inactive
8,O=[N+]([O-])c1cc([N+](=O)[O-])c(-c2ccn[nH]2)s1,inactive: -2.7%
9,ClCCSc1nnc(-c2cccnc2)o1,inactive: 11.3%
10,COC(=O)C1(C)COP(=O)(N2CCCCCC2)OC1 (centres undefined),inactive: -5.09%
11,CC(C)c1ccc(OP(=O)(Nc2ccccn2)Oc2ccccc2F)cc1 (centres undefined),inactive: -2.83%
12,COP(=O)(OC)N1CC1c1ccccc1 (centres undefined),inactive
13,CCCCOc1ccc(C(=O)NCC2(N3CCCCC3)CCCCC2)cc1OC,inactive
14,Cc1cc(SC(NC(=O)c2ccccc2)C(Cl)(Cl)Cl)nc(C(C)C)n1 (centres undefined),inactive: 0.238%
15,CCOC(=O)Nc1ccc([As](=O)(O)O)c(O)c1,inactive: -8.49%
16,O=C(O)C(O)c1ccc(N(CCCl)CCCl)cc1 (centres undefined),inactive: 0.926%
17,CC1CCNP(=O)(N(CCCl)CCCl)O1 (centres undefined),inactive
18,O=P(Nc1ccccn1)(c1cccc2ccccc12)c1cccc2ccccc12,inactive: -1.39%
19,Cc1cc(SC(NC=O)C(Cl)(Cl)Cl)ncn1 (centres undefined),inactive: 0.993%
20,O=[N+]([O-])c1ccc(Nc2ccc(Oc3ccc([N+](=O)[O-])cc3[N+](=O)[O-])cc2)c([N+](=O)[O-])c1,inactive: -8.34%
21,CCOC(=O)Nc1cccc([As](=O)(O)O)c1,inactive: 2.46%
22,O=C(O)C(=O)c1ccc(N(CCCl)CCCl)cc1,inactive: -9.17%
23,O=C(COc1ccccc1)OC1CN2CCC1CC2 (centres undefined),inactive
24,COP1(=S)c2c(C)nn(CCC#N)c2N=C(c2ccc(F)cc2)N1C (centres undefined),inactive: -8%
25,CCC(C)N(CC(C)C)C(=S)SC(NC(C)=O)C(Cl)(Cl)Cl (centres undefined),inactive: -9.91%

row,Structure (SMILES),"activity change, negative = inhibition"
1,O=C(OC1CN2CCC1CC2)c1cccc([N+](=O)[O-])c1 (centres undefined),inactive
2,CSc1ccc(Nc2c([N+](=O)[O-])cc([N+](=O)[O-])cc2[N+](=O)[O-])cc1,inactive: -6.95%
3,CCOC(=O)c1ccc(NC(=O)C(C)(CCl)SC)cc1 (centres undefined),inactive: -5.19%
4,O=P1(N(CCCl)CCCl)NCCC(C(F)(F)F)O1 (centres undefined),inactive
5,Clc1n[nH]nc1-c1nn[nH][15n]1,inactive
6,CC(C)(C)C(=O)NC(Sc1ncccn1)C(Cl)(Cl)Cl (centres undefined),inactive: 0.626%
7,O=P1(Nc2ccccn2)COc2ccccc2OC1,inactive: -1.5%
8,CCC1=CC2Cc3nc4ccc(Cl)cc4c(N)c3C(C1)C2 (centres undefined),inactive: 9.88%
9,CCOP(=O)(NC(=NC(C)c1ccccc1)NC(C)c1ccccc1)OCC (centres undefined),inactive: 3.51%
10,CCOP(=O)(Nc1ccc(C)cn1)OCC,inactive: -1.27%
11,CN(CCCl)Cc1cc(Cl)c(NC2=NCCN2)c(Cl)c1,inactive: -0.978%
12,CC(C)/C=N\N=C(\N)N[N+](=O)[O-],inactive: -0.265%
13,CN(C(=O)Cc1ccc(Cl)c(Cl)c1)[C@@H]1CCCC[C@H]1N1CCCC1,inactive: -1.9%
14,CC1(CBr)Cn2c(nc3ccccc3c2=O)S1 (centres undefined),inactive: 4.48%
15,COc1ccccc1CNC(=O)COC(=O)C(O)(c1ccccc1)c1ccccc1,inactive: -4.81%
16,CN(C)C1(CNC(=O)c2ccc(S(C)(=O)=O)cc2)CCCCC1,inactive: 3.83%
17,O=C(/C=C/c1ccccc1)OC1CN2CCC1CC2 (centres undefined),inactive: -5.36%
18,CCCC1OP(=O)(Nc2ccccc2)OCC1CC (centres undefined),inactive: 0.469%
19,CC1CCC(C(C)C)C(OP(=O)(Nc2ccccn2)c2ccccc2)C1 (centres undefined),inactive: 2.15%
20,Cc1ccc(C(=O)OC2CN3CCC2CC3)cc1 (centres undefined),inactive: -4.46%
21,Nc1cccc([As](=O)(O)c2ccccc2)c1,inactive: -3.09%
22,Cc1ccc(OCC(=O)OC2CN3CCC2CC3)cc1 (centres undefined),inactive
23,O=[As](O)(c1cccs1)c1cccs1,inactive: -8.87%
24,O=P1(Nc2ccc(Br)cn2)COc2ccccc2OC1,inactive: 11.2%
25,NS(=O)(=O)c1cccc(NC(=O)COC(=O)C(O)(c2ccccc2)c2ccccc2)c1,inactive

row,Structure (SMILES),"activity change, negative = inhibition"
1,O=P1(Nc2ncccn2)COc2ccccc2OC1,inactive: 2.82%
2,Nc1ccccc1[As](=O)(O)c1ccccc1,inactive: -9.8%
3,O=C(O)COc1ccc([As](=O)(O)O)cc1[N+](=O)[O-],inactive: 0.742%
4,CCOP1(=S)c2c(C)nn(CCC#N)c2N=C(c2ccccc2F)N1C (centres undefined),inactive: -10.2%
5,O=P(Nc1nccs1)(c1ccccc1)c1nc2ccccc2s1 (centres undefined),inactive
6,CS(=O)(=O)c1cc([N+](=O)[O-])c2no[n+]([O-])c2c1,inactive: -6.17%
7,N#CCCN(C(=O)COC(=O)C(O)(c1ccccc1)c1ccccc1)c1ccc(F)cc1,inactive: -7.24%
8,CN(C(=O)Cc1ccccc1)[C@@H]1CC[C@]2(CCCO2)C[C@H]1N1CCCC1,inactive: -2.2%
9,CCOP1(=S)c2c(C)nn(CCC#N)c2N=C(c2ccc(F)cc2)N1C (centres undefined),inactive: 0.117%
10,O=[N+]([O-])c1ccc2c(c1)nnn2O,inactive: -6.09%
11,CN(C)C(=O)c1cc([N+](=O)[O-])cc2c1-c1c(cc([N+](=O)[O-])cc1[N+](=O)[O-])C2=O,inactive: -20.6%
12,CN(C(=O)Cc1ccc(Cl)c(Cl)c1)[C@H]1CC[C@@]2(CCCO2)C[C@@H]1N1CCCC1,inactive: 9.27%
13,NC(=O)Nc1ccc([As](=O)(O)O)cc1,inactive: -4.64%
14,Cc1cccc(OCC(=O)OC2CN3CCC2CC3)c1 (centres undefined),inactive: -1.74%
15,O=[As](O)(c1cccc(O)c1)c1cccc(O)c1,inactive: 7.77%
16,O=C(OC1CN2CCC1CC2)c1ccc(Cl)cc1 (centres undefined),inactive: -7.08%
17,O=[As](O)(O)c1cccnc1,inactive: -9.73%
18,COc1cc(C(=O)NCC2(N3CCOCC3)CCCCC2)cc(Cl)c1OC(C)C,inactive
19,CS(=O)(=O)c1ccc(Cl)c(NC(=O)COC(=O)C(O)(c2ccccc2)c2ccccc2)c1,inactive: -3.08%
20,COc1cc(C2NCCC3(OCCO3)C2(C)C)cc(OC)c1OC (centres undefined),inactive
21,CCOP(=O)(Nc1cccc2ccccc12)OCC,inactive: -1.99%
22,Cc1ccc(NCCc2c([N+](=O)[O-])cc([N+](=O)[O-])cc2[N+](=O)[O-])cc1,inactive: -0.12%
23,Nc1cccc2c([As](=O)(O)O)cccc12,inactive: -5.7%
24,CCCOP(=S)(Nc1nc(N)cc(=O)[nH]1)OCCC,inactive: 8.79%
